# Results taken from publication PMC6941823, “A dispensable paralog of succinate dehydrogenase subunit C mediates standing resistance towards a subclass of SDHI fungicides in Zymoseptoria tritici” (PLoS Pathogens, 2019).
# Where two headings read alike, the source gives them in different places.
# How the values were obtained:
# [1] = system: SQR (SDHC / altC) of IPO323 pTet::SDHC3 transformant, induced; test: Succinate-quinone (SQR) SDHI sensitivity assay on purified mitochondria, IPO323 pTet::SDHC3 induced; format: biochemical, Zymoseptoria tritici; conditions: IC50 ratio compared to IPO323 values
# Protocol: Succinate-ubiquinone oxidoreductase (SQR) inhibition assays were performed on mitochondrial extracts from a panel of strains that were (i) either carrying a unique C-subunit encoding gene (ZtSDHC1, ZtSDHC1_A84I or Zt-SDHC3), or (ii) carrying two C-subunit encoding genes ZtSDHC1 and ZtSDHC3 (Table 1).
# Biomass production, mitochondrial extraction and purification were performed as described in [14]. Succinate: ubiquinone/DCPIP sensitivity tests were performed as described in [14] with minor modification.
# [2] = system: Zymoseptoria tritici field and genetically modified strains; test: Liquid culture assay for fungicide sensitivity determination; format: cell-based; conditions: respective to IPO323
# Protocol: Sensitivity towards commercial fungicides was determined for a set of 99 SHA-SDHI-naïve Z. tritici field isolates sampled in Europe between 2006 and 2009. The EC50 of these isolates was determined in liquid growth assays and the data obtained compared for each possible pair of SDHI fungicides (cross-resistance (XR) plots, Fig 1). […] Comparative succinate-quinone reductase (SQR) enzyme inhibition tests were performed with mitochondria extracted from a panel of SHA-SDHIs tolerant and sensitive isolates.
# In order to characterize in more depth the mechanisms driving sensitivity differences across the isolates, a subset of eight isolates carrying the ZtSDHC3 gene was analyzed for their sensitivity to SDHIs, alt-SDHC expression and splicing patterns. Liquid culture growth sensitivity tests were performed to determine EC50s for this set of isolates towards a wide range of commercial and research SDHIs (S5 Table).
# Pre-culture of the inoculum and fungicide sensitivity tests were performed following previously described procedures. Different ranges of inhibitor concentrations were used for population monitoring and for the detailed phenotyping of a selected set of individual field isolates and genetically modified strains. For fungicide sensitivity monitoring of European field populations, final inhibitors concentrations were between 100 mg.L^-1 and 0.0001 mg.L^-1 with uniform 10x dilution steps (7 inhibitor concentrations + DMSO control). For refined sensitivity analysis of a smaller panel of isolates final inhibitor concentrations ranged between 0.5 mM and 0.47 nM with uniform 4x dilution factor steps (11 inhibitor concentrations+ DMSO control).
# [3] = system: Zymoseptoria tritici progeny isolates; format: cell-based; conditions: for phenotype flag in column R (resistant): 1 = resistant; for Phenotype resistant (R) flag: fluopyram 10 mg.L^-1 agar, 1 in R column; for phenotype flag, resistant (R) column: growth on fluopyram 10 mg.L^-1 agar; for phenotype flag, resistant (R) column / Phenotyping Growth Fluopyram 10ppm Resistant: 1 = scored resistant; for Phenotype scored resistant (R): agar growth on fluopyram 10 mg.L^-1, 1 = scored in this class
compound,measurement,setting,value
O=C(NCCc1ncc(C(F)(F)F)cc1Cl)c1ccccc1C(F)(F)F [Fluopyram],"RF (resistance factor), pTet Induced (SDHC / altC)",[1],43.9
same,RF LC (resistance factor in liquid culture),[2]; strain 06STD024,42.1
same,RF LC (resistance factor in liquid culture),"[2]; strain 06STD024, listed as fluopyram",~50
same,RF LC (resistance factor in liquid culture),[2]; strain 07STGB009,49.2
same,RF LC (resistance factor in liquid culture),"[2]; strain 07STGB009, listed as fluopyram",~50
same,RF LC (resistance factor in liquid culture),[2]; strain 09STD041,6.2
same,RF LC (resistance factor in liquid culture),[2]; strain 09STD053,2.5
same,RF LC (resistance factor in liquid culture),[2]; strain 09STF011,16.1
same,RF LC (resistance factor in liquid culture),[2]; strain 09STF037,2.1
same,RF LC (resistance factor in liquid culture),[2]; strain 09STF112,13.0
same,RF LC (resistance factor in liquid culture),[2]; strain 09STIR20.3,1.9
same,RF LC (resistance factor in liquid culture),"[2]; strain 09STIR20.3, listed as fluopyram",2
same,RF LC (resistance factor in liquid culture),[2]; strain IPO323,1
same,RF LC (resistance factor in liquid culture),[2]; strain IPO94269,0.7
same,phenotype flag in column R (resistant),"[3]; progeny isolate 26, cross IPO323XD024",1
same,phenotype flag in column R (resistant),"[3]; progeny isolate 29, cross IPO323XD024",1
same,phenotype flag in column R (resistant),"[3]; progeny isolate 30, cross IPO323XD024",1
same,phenotype flag in column R (resistant),"[3]; progeny isolate 35, cross IPO323XD024",1
same,phenotype flag in column R (resistant),"[3]; progeny isolate 36, cross IPO323XD024",1
same,phenotype flag in column R (resistant),"[3]; progeny isolate 38, cross IPO323XD024",1
same,phenotype flag in column R (resistant),"[3]; progeny isolate 41, cross IPO323XD024",1
same,phenotype flag in column R (resistant),"[3]; progeny isolate 42, cross IPO323XD024",1
same,phenotype flag in column R (resistant),"[3]; progeny isolate 44, cross IPO323XD024",1
same,phenotype flag in column R (resistant),"[3]; progeny isolate 45, cross IPO323XD024",1
same,phenotype flag in column R (resistant),"[3]; progeny isolate 47, cross IPO323XD024",1
same,phenotype flag in column R (resistant),"[3]; progeny isolate 48, cross IPO323XD024",1
same,phenotype flag in column R (resistant),"[3]; progeny isolate 52, cross IPO323XD024",1
same,phenotype flag in column R (resistant),"[3]; progeny isolate 58, cross IPO323XD024",1
same,phenotype flag in column R (resistant),"[3]; progeny isolate 61, cross IPO323XD024",1
same,phenotype flag in column R (resistant),"[3]; progeny isolate 64, cross IPO323XD024",1
same,"phenotype scored resistant (R), flag 1 in R column","[3]; progeny isolate 66, cross IPO323XD024, fluopyram 10 mg.L^-1 agar",1
same,"phenotype scored resistant (R), flag 1 in R column","[3]; progeny isolate 68, cross IPO323XD024, fluopyram 10 mg.L^-1 agar",1
same,"phenotype scored resistant (R), flag 1 in R column","[3]; progeny isolate 69, cross IPO323XD024, fluopyram 10 mg.L^-1 agar",1
same,"phenotype scored resistant (R), flag 1 in R column","[3]; progeny isolate 70, cross IPO323XD024, fluopyram 10 mg.L^-1 agar",1
same,"phenotype scored resistant (R), flag 1 in R column","[3]; progeny isolate 73, cross IPO323XD024, fluopyram 10 mg.L^-1 agar",1
same,"phenotype scored resistant (R), flag 1 in R column","[3]; progeny isolate 74, cross IPO323XD024, fluopyram 10 mg.L^-1 agar",1
same,"phenotype scored resistant (R), flag 1 in R column","[3]; progeny isolate 76, cross IPO323XD024, fluopyram 10 mg.L^-1 agar",1
same,"phenotype scored resistant (R), flag 1 in R column","[3]; progeny isolate 79, cross IPO323XD024, fluopyram 10 mg.L^-1 agar",1
same,"phenotype scored resistant (R), flag 1 in R column","[3]; progeny isolate 80, cross IPO323XD024, fluopyram 10 mg.L^-1 agar",1
same,"phenotype scored resistant (R), flag 1 in R column","[3]; progeny isolate 81, cross IPO323XD024, fluopyram 10 mg.L^-1 agar",1
same,"phenotype scored resistant (R), flag 1 in R column","[3]; progeny isolate 85, cross IPO323XD024, fluopyram 10 mg.L^-1 agar",1
same,"phenotype scored resistant (R), flag 1 in R column","[3]; progeny isolate 86, cross IPO323XD024, fluopyram 10 mg.L^-1 agar",1
same,"phenotype scored resistant (R), flag 1 in R column","[3]; progeny isolate 87, cross IPO323XD024, fluopyram 10 mg.L^-1 agar",1
same,"phenotype scored resistant (R), flag 1 in R column","[3]; progeny isolate 93, cross IPO323XD024, fluopyram 10 mg.L^-1 agar",1
same,"phenotype scored resistant (R), flag 1 in R column","[3]; progeny isolate 94, cross IPO323XD024, fluopyram 10 mg.L^-1 agar",1
same,"phenotype scored resistant (R), flag 1 in R column","[3]; progeny isolate 95, cross IPO323XD024, fluopyram 10 mg.L^-1 agar",1
same,"phenotype scored resistant (R), flag 1 in R column","[3]; progeny isolate 96, cross IPO323XD024, fluopyram 10 mg.L^-1 agar",1
same,"phenotype scored resistant (R), flag 1 in R column","[3]; progeny isolate 100, cross IPO323XD024, fluopyram 10 mg.L^-1 agar",1
same,"phenotype scored resistant (R), flag 1 in R column","[3]; progeny isolate 101, cross IPO323XD024, fluopyram 10 mg.L^-1 agar",1
same,"phenotype scored resistant (R), flag 1 in R column","[3]; progeny isolate 104, cross IPO323XD024, fluopyram 10 mg.L^-1 agar",1
same,"phenotype scored resistant (R), flag 1 in R column","[3]; progeny isolate 105, cross IPO323XD024, fluopyram 10 mg.L^-1 agar",1
same,"phenotype scored resistant (R), flag 1 in R column","[3]; progeny isolate 108, cross IPO323XD024, fluopyram 10 mg.L^-1 agar",1
same,Phenotype resistant (R) flag,[3]; progeny isolate 154 of cross IPO323XD024,1
same,Phenotype resistant (R) flag,[3]; progeny isolate 157 of cross IPO323XD024,1
same,Phenotype resistant (R) flag,[3]; progeny isolate 159 of cross IPO323XD024,1
same,Phenotype resistant (R) flag,[3]; progeny isolate 160 of cross IPO323XD024,1
same,Phenotype resistant (R) flag,[3]; progeny isolate 164 of cross IPO323XD024,1
same,Phenotype resistant (R) flag,[3]; progeny isolate 165 of cross IPO323XD024,1
same,Phenotype resistant (R) flag,[3]; progeny isolate 167 of cross IPO323XD024,1
same,Phenotype resistant (R) flag,[3]; progeny isolate 170 of cross IPO323XD024,1
same,Phenotype resistant (R) flag,[3]; progeny isolate 171 of cross IPO323XD024,1
same,Phenotype resistant (R) flag,[3]; progeny isolate 172 of cross IPO323XD024,1
same,Phenotype resistant (R) flag,[3]; progeny isolate 178 of cross IPO323XD024,1
same,Phenotype resistant (R) flag,[3]; progeny isolate 179 of cross IPO323XD024,1
same,Phenotype resistant (R) flag,[3]; progeny isolate 180 of cross IPO323XD024,1
same,Phenotype resistant (R) flag,[3]; progeny isolate 181 of cross IPO323XD024,1
same,Phenotype resistant (R) flag,[3]; progeny isolate 183 of cross IPO323XD024,1
same,Phenotype resistant (R) flag,[3]; progeny isolate 186 of cross IPO323XD024,1
same,Phenotype resistant (R) flag,[3]; progeny isolate 187 of cross IPO323XD024,1
same,Phenotype resistant (R) flag,[3]; progeny isolate 188 of cross IPO323XD024,1
same,Phenotype resistant (R) flag,[3]; progeny isolate 189 of cross IPO323XD024,1
same,"phenotype flag, resistant (R) column","[3]; progeny isolate 190, cross IPO323XD024",1
same,"phenotype flag, resistant (R) column","[3]; progeny isolate 191, cross IPO323XD024",1
same,"phenotype flag, resistant (R) column","[3]; progeny isolate 194, cross IPO323XD024",1
same,"phenotype flag, resistant (R) column","[3]; progeny isolate 196, cross IPO323XD024",1
same,"phenotype flag, resistant (R) column","[3]; progeny isolate 198, cross IPO323XD024",1
same,"phenotype flag, resistant (R) column","[3]; progeny isolate 199, cross IPO323XD024",1
same,"phenotype flag, resistant (R) column","[3]; progeny isolate 200, cross IPO323XD024",1
same,"phenotype flag, resistant (R) column","[3]; progeny isolate 202, cross IPO323XD024",1
same,"phenotype flag, resistant (R) column","[3]; progeny isolate 203, cross IPO323XD024",1
same,"phenotype flag, resistant (R) column","[3]; progeny isolate 204, cross IPO323XD024",1
same,"phenotype flag, resistant (R) column","[3]; progeny isolate 205, cross IPO323XD024",1
same,"phenotype flag, resistant (R) column","[3]; progeny isolate 206, cross IPO323XD024",1
same,"phenotype flag, resistant (R) column","[3]; progeny isolate 208, cross IPO323XD024",1
same,"phenotype flag, resistant (R) column","[3]; progeny isolate 212, cross IPO323XD024",1
same,"phenotype flag, resistant (R) column","[3]; progeny isolate 213, cross IPO323XD024",1
same,"phenotype flag, resistant (R) column","[3]; progeny isolate 214, cross IPO323XD024",1
same,"phenotype flag, resistant (R) column","[3]; progeny isolate 216, cross IPO323XD024",1
same,"phenotype flag, resistant (R) column","[3]; progeny isolate 219, cross IPO323XD024",1
same,"phenotype flag, resistant (R) column","[3]; progeny isolate 222, cross IPO323XD024",1
same,"phenotype flag, resistant (R) column","[3]; progeny isolate 226, cross IPO323XD024",1
same,Phenotype scored resistant (R),[3]; progeny isolate 231 of cross IPO323 x D024,1
same,Phenotype scored resistant (R),[3]; progeny isolate 232 of cross IPO323 x D024,1
same,Phenotype scored resistant (R),[3]; progeny isolate 233 of cross IPO323 x D024,1
same,Phenotype scored resistant (R),[3]; progeny isolate 234 of cross IPO323 x D024,1
same,Phenotype scored resistant (R),[3]; progeny isolate 236 of cross IPO323 x D024,1
same,Phenotyping Growth Fluopyram 10ppm Resistant,"[3]; progeny strain 1, cross IPO323XD024",1
same,Phenotyping Growth Fluopyram 10ppm Resistant,"[3]; progeny strain 2, cross IPO323XD024",1
same,Phenotyping Growth Fluopyram 10ppm Resistant,"[3]; progeny strain 4, cross IPO323XD024",1
same,Phenotyping Growth Fluopyram 10ppm Resistant,"[3]; progeny strain 5, cross IPO323XD024",1
same,Phenotyping Growth Fluopyram 10ppm Resistant,"[3]; progeny strain 6, cross IPO323XD024",1
same,Phenotyping Growth Fluopyram 10ppm Resistant,"[3]; progeny strain 7, cross IPO323XD024",1
same,Phenotyping Growth Fluopyram 10ppm Resistant,"[3]; progeny strain 8, cross IPO323XD024",1
same,Phenotyping Growth Fluopyram 10ppm Resistant,"[3]; progeny strain 9, cross IPO323XD024",1
same,Phenotyping Growth Fluopyram 10ppm Resistant,"[3]; progeny strain 11, cross IPO323XD024",1
same,Phenotyping Growth Fluopyram 10ppm Resistant,"[3]; progeny strain 12, cross IPO323XD024",1
same,Phenotyping Growth Fluopyram 10ppm Resistant,"[3]; progeny strain 15, cross IPO323XD024",1
same,Phenotyping Growth Fluopyram 10ppm Resistant,"[3]; progeny strain 22, cross IPO323XD024",1
same,Phenotyping Growth Fluopyram 10ppm Resistant,"[3]; progeny strain 24, cross IPO323XD024",1
same,Phenotyping Growth Fluopyram 10ppm Resistant,"[3]; strain D024 (parent), cross IPO323XD024, 0 = not",1
same,Phenotyping Growth Fluopyram 10ppm Resistant,"[3]; strain IPO323 (parent), cross IPO323XD024, 0 = not",0
